The values that follow come from ChEMBL document CHEMBL6134870 (J Med Chem, 2025).

Sequences of proteins named here, by UniProt entry; tags and fusion partners are left off. Residues count along the entry.
UniProt P0DPI0, 2-448 limits assumed: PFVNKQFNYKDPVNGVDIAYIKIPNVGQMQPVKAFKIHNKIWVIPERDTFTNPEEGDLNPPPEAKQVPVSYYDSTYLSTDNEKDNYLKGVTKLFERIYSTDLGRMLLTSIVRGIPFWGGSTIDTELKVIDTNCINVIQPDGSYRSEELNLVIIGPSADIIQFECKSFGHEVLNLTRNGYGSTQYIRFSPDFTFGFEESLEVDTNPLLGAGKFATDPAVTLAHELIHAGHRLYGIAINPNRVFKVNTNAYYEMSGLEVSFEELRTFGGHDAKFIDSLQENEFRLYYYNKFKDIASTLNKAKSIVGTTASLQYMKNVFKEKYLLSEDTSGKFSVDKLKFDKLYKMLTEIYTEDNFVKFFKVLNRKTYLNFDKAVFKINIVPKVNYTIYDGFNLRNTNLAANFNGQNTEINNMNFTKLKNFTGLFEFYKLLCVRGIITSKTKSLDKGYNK

The structures appear in SMILES notation.

A word on the IC50: it is the concentration at which inhibition is half-maximal. As a reminder, the Ki is a dissociation constant, usually derived from enzyme kinetics or from competition with a known ligand.

In test [1] the target is T1, Botulinum neurotoxin type A (Clostridium botulinum, UniProt P0DPI0). The experiment in a line: Inhibition of Botulinum neurotoxins A light chain using SNAPtideflP6 as substrate by SNAPtide assay.
For test [2], the target named is T1, Botulinum neurotoxin type A. The experiment in a line: Inhibition of Botulinum neurotoxins A (1-448) light chain using 66-mer peptide substrate measured after 10 mins by 66-mer LC-MS based assay.
The target is the same in test [3]. The experiment in a line: Inhibition of Botulinum neurotoxins A (1-425) light chain using 66-mer peptide substrate measured after 10 mins by 66-mer LC-MS based assay.
Test [4] shares this target. The experiment in a line: Inhibition of Botulinum neurotoxins A light chain in cells by Western blotting analysis. Background: A western blot detects proteins with antibodies after separation by electrophoresis.
The target is the same in test [5]. Kind of test: Uncompetitive inhibition of Botulinum neurotoxins A light chain assessed as inhibition constant using SNAPtide as substrate incubated for 8 hrs by LC-MS analysis.
Test [6] has the same target. Kind of test: Competitive inhibition of Botulinum neurotoxins A light chain assessed as inhibition constant using SNAPtide as substrate incubated for 10 mins by 66-mer LC-MS analysis.

Consider `O=C(CCc1ccccc1)Nc1ccc2c(c1)NC(=S)C2`, for which, in test [1], the IC50 is 15.5 µM.

Regarding `CSc1cc2ccccc2[nH]1`, the IC50 entry in test [1] is “Not_active”. Turning to `O=C(Nc1ccc2c(c1)NC(=S)C2)c1ccccc1`, the IC50 result is “Not_determined” in test [2], 11.3 µM in test [1] and 1.2 µM in test [3]. For `O=C(Nc1cc2c(cc1Cl)NC(=S)C2)c1ccccc1`, the IC50 result in test [2] is given as “Not_determined”.

For `CC(=O)Sc1cc2cc(Br)c(Br)cc2[nH]1`, in test [4], the IC50 amounted to 30.3 µM. On to `N#C[Se]CCCCc1ccn2c(=O)cc(CNCc3ccc(-c4ccccc4)cc3)nc2c1O`, for which the IC50 in test [4] was found to be 8.5 µM. Compared with the last compound, the IC50 is about 3.6-fold lower. In the case of `CC1(CCC(=O)Nc2ccc3c(c2)NC(=S)C3)N=N1`, the IC50 in test [1] stood at 14 µM. For the compound `O=C(c1ccc2c(c1)CC(=S)N2)N1CCc2ccccc21`, in test [2], the IC50 entry is reported as “Not_determined”. With `O=c1ccnc2c(O)cccn12`, in test [2], the IC50 entry is “Not_determined”. Take `S=C1Cc2cc(Br)ccc2N1`: the Ki came to 2.9 µM in test [5] and 1.8 µM in test [6].

Compound `S=C1Cc2cc(Br)c(Br)cc2N1` displayed an IC50 in test [4] of 32 µM. That is a double-digit micromolar value. For the compound `O=C(Nc1cccc2ccccc12)c1ccc2c(c1)CC(=S)N2`, the IC50 result in test [2] is listed as “Not_determined”. Consider `O=C(Nc1ccc2c(c1)CC(=S)N2)c1ccc(Cl)cc1Cl`, for which the IC50 entry in test [2] is on record as “Not_determined”.

`C=C=CC(=O)NCCCc1ccn2c(=O)cc(CNCc3ccc(-c4ccccc4)cc3)nc2c1O` displayed an IC50 in test [4] of 20.9 µM.
